Results deposited as PubChem BioAssay AID624099 (ICCB-Longwood, 2012).
The deposit covers about 21,000 reagents; shown is a part drawn at random. 497 of them (2.4%) count as active. 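Higher z means weaker E2 silencing; only reporter increases were scored, and knock-downs that hurt cell survival may mask genuine repressor factors.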

- Screen: 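Knock-downs relieving repression by E2 of an HPV18 LCR luciferase reporter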 (primary screen)
- Cells: human C33A cervical carcinoma cells (HPV-negative) stably expressing BPV1 E2 and an HPV18 LCR luciferase reporter
- Reagent: siRNA pool against human genes, 40 nM
- Timing: 72 h
- Detection: 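HPV18 LCR reporter light per well, converted to plate-wise z-scores that exclude control wells, and averaged over triplicate plates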
- Direction: mean z-score and z-score: higher = stronger reporter signal, weaker E2 silencing
- Rule for the call: 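Mean z ≥ 2 together with z ≥ 2 in two or more of the three replicates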

PLEKHG3 — mean z-score: -0.73; z-score, replicate A: -1.01; z-score, replicate B: -0.5; z-score, replicate C: -0.67; Call: inactive
KAT2A — mean z-score: -0.23; z-score, replicate A: -0.18; z-score, replicate B: -0.11; z-score, replicate C: -0.4; Call: inactive
GALNT9 — mean z-score: 0.13; z-score, replicate A: 0.18; z-score, replicate B: 0.05; z-score, replicate C: 0.16; Call: inactive
ASCL2 — mean z-score: 1.1; z-score, replicate A: 1.41; z-score, replicate B: 1.06; z-score, replicate C: 0.82; Call: inactive
CNIH4 — mean z-score: -0.68; z-score, replicate A: -0.75; z-score, replicate B: -0.51; z-score, replicate C: -0.78; Call: inactive
CACNA2D3 — mean z-score: -0.38; z-score, replicate A: 0.06; z-score, replicate B: -0.75; z-score, replicate C: -0.45; Call: inactive
PAGE3 — mean z-score: 1.33; z-score, replicate A: 1.23; z-score, replicate B: 1.41; z-score, replicate C: 1.34; Call: inactive
CSF3R — mean z-score: 0.4; z-score, replicate A: 0.16; z-score, replicate B: 0.72; z-score, replicate C: 0.33; Call: inactive
PRKAG1 — mean z-score: -0.84; z-score, replicate A: -1.17; z-score, replicate B: -0.97; z-score, replicate C: -0.38; Call: inactive
SLC25A2 — mean z-score: 0.52; z-score, replicate A: 0.64; z-score, replicate B: 0.42; z-score, replicate C: 0.51; Call: inactive
GDF11 — mean z-score: -0.5; z-score, replicate A: -0.56; z-score, replicate B: -0.65; z-score, replicate C: -0.3; Call: inactive
NSUN5 — mean z-score: 2.41; z-score, replicate A: 2.12; z-score, replicate B: 2.46; z-score, replicate C: 2.64; Call: active
HTR3E — mean z-score: 1.06; z-score, replicate A: 0.68; z-score, replicate B: 0.98; z-score, replicate C: 1.51; Call: inactive
GSS — mean z-score: 0.1; z-score, replicate A: 0.2; z-score, replicate B: 0.15; z-score, replicate C: -0.05; Call: inactive
FLJ40712 (retired record) — mean z-score: 0.21; z-score, replicate A: -0.05; z-score, replicate B: 0.2; z-score, replicate C: 0.47; Call: inactive
POTEG — mean z-score: -0.25; z-score, replicate A: -0.82; z-score, replicate B: 0.31; z-score, replicate C: -0.25; Call: inactive
POLR3K — mean z-score: 0.77; z-score, replicate A: 0.84; z-score, replicate B: 0.8; z-score, replicate C: 0.66; Call: inactive
LOC402521 (retired record) — mean z-score: 1.21; z-score, replicate A: 1.43; z-score, replicate B: 1.1; z-score, replicate C: 1.11; Call: inactive
NEIL3 — mean z-score: -0.76; z-score, replicate A: -0.87; z-score, replicate B: -1.16; z-score, replicate C: -0.26; Call: inactive
TRIM51G — mean z-score: -0.32; z-score, replicate A: -0.44; z-score, replicate B: -0.15; z-score, replicate C: -0.36; Call: inactive
ODR4 — mean z-score: 0.79; z-score, replicate A: 0.92; z-score, replicate B: 1.01; z-score, replicate C: 0.44; Call: inactive
LHFPL1 — mean z-score: -0.6; z-score, replicate A: -0.59; z-score, replicate B: -0.57; z-score, replicate C: -0.66; Call: inactive
ZHX3 — mean z-score: -0.83; z-score, replicate A: -1.15; z-score, replicate B: -0.87; z-score, replicate C: -0.46; Call: inactive
DYRK1A — mean z-score: 0.05; z-score, replicate A: 0.8; z-score, replicate B: -0.44; z-score, replicate C: -0.22; Call: inactive
THEM5 — mean z-score: 0.11; z-score, replicate A: 0.16; z-score, replicate B: 0.13; z-score, replicate C: 0.03; Call: inactive
LDLRAD3 — mean z-score: -0.4; z-score, replicate A: 0.38; z-score, replicate B: -1.28; z-score, replicate C: -0.28; Call: inactive
NDUFA2 — mean z-score: 0.13; z-score, replicate A: -0.04; z-score, replicate B: 0.31; z-score, replicate C: 0.11; Call: inactive
